Source: patent US20200123233A1

B1: IV16 (VHH)
VHH: QVQLQESGGGLVQTGGSLRLSCAASGRTFGGYAMAWFRQAPGKGREFVAAVTWSSGTTNYAGSVKDRFTVSRDNGNNTMYLQMNSLKPEDTAVYICGVASGYRSTDRLSEPGWINYWGQGTQVTVSS
B2: IV24 (VHH)
VHH: QVQLQESGGGLVQTGGSLRLSCAASGRTFGGYAMAWFRQAPGKGREFVAAITWSAGTTNYADSMKDRFTVSRDTANNTMYLEMNRLKPDDTAVYICGAATGYRSTDRLSTPAWINYWGQGTQVTVSS
B3: IV26 (VHH)
VHH: QVQLQESGGGLVRTGDSLRLSCAASGRTFNGYAMAWFRQAPGKGREFVAAVTWSSGTTNYAGSVKDRFTVSRDNANNTMYLQMNSLKPEDTAVYICGAASGYRSTDRLSDPAWTNYWGQGTQVTVSS
B4: IV30 (VHH)
VHH: QVQLQESGGGLVETGGSLRLSCAASGRTFGGYAMAWFRQAPGKGREFVAAVTWTSGTTNYAGSVKDRFTVSRDNANNTMYLQMNSLKPEDTAVYICGAASGYRSPDRLSEPEWINYWGQGTQVTVSS
B5: IV34 (VHH)
VHH: QVQLQESGGGLVQTGGSLRLSCAASGGTFGGYAMAWFRQAPGKGREFVASVIWNGGTTNYLDSVKDRFTVSRDMANNTMYLQMNSLKPEDTAVYICGAASGYRSTDRLSEPGWVNYWGQGTQVTVSS
B6: IV14 (VHH)
VHH: QVQLQESGGGLVQAGGSLRLSCAASGRTLNNYAMGWFRQAPGAEREFVGAISASGDSTQYTESVQGRFTISKDNAKSTVYLDMNSLKPEDTAVYYCAADRKTLAYYTSRLRSRYDYWGQGTQVTVSS
B7: IV15 (VHH)
VHH: QVQLQQSGGGLVQAGGSLRLSCAASGGTLNNYAMGWFRQAPGAEREFVGAISAGGDSTQYTESVQGRFTISKDNAKSTVYLDMNSLKPEDTAVYYCAADRKTLTYYTSRLRSRYDYWGQGTQVTVSS
B8: IV17 (VHH)
VHH: QVQLQESGGGLVQAGGSLRLSCAASGRTLNNYAMGWFRQAPGAEREFVGAISASGDSTQYTESVQGRFTISKDNAKSTVYLDMNSLKPEDTAVYYCAADRKTLTFYTSRLRSRYDYWGQGTQVTVSS
B9: IV18 (VHH)
VHH: QVQLQQSGGGLVQAGGSLRLSCAASGRTLNNYAMGWFRQAPGAEREFVGAISASGDSTQYTESVQGRFTISKDNAKSTVYLDMNSLKPEDTAVYYCAADRKTLTFYTSRLRSRYDYWGQGTQVTVSS
B10: IV29 (VHH)
VHH: QVQLQESGGGLVQAGGSLRLSCVASGRTLDNYAMGWFRQAPGAEREFVGAISANGEDTQYTESVQGRFTISKDNAKSTVYLDMNSLKPEDTAVYYCAADRKTLTYYTSRLRSRYEYWGQGTQVTVSS
B11: IV31 (VHH)
VHH: QVQLQQSGGGLVQAGGSLRLSCAASGRTLNNYAMGWFRQAPGAEREFVGAISASGDSTQYTESVQGRFTISKDNAKSTVVLDMNSLKPEDTAVYYCAADGKTLTFYTSRLRSRYDYWGQGTQVTVSS
B12: IV50 (VHH)
VHH: QVQLQESGGGLVQAGGFLRLSCAASGRSFNTYAMGWFRQAPGKEREFVAGITRSGTATDYADSVKGRFTISRDNARNTVYLQMNRLKPEDSAVYYCAAHASYDRMIYSEYKYWGQGTQVTVSS

The binders below were run against authentic influenza antigen of strain A/Turkey/Wisconsin/68, serotype H5N9 (influenza A virus A/Turkey/Wisconsin/68 (H5N9)).
Binder B1 has an Extinction at 450 nm in ELISA (extinction at 450 nm) of 0.045. B2 showed an Extinction at 450 nm in ELISA (extinction at 450 nm) of 0.047. B3 was tested, and the Extinction at 450 nm in ELISA (extinction at 450 nm) was 0.097. With B4 the Extinction at 450 nm in ELISA (extinction at 450 nm) was 0.053. Binder B5 has an Extinction at 450 nm in ELISA (extinction at 450 nm) of 0.079. B6 gave an Extinction at 450 nm in ELISA (extinction at 450 nm) of 0.048. B7 was tested, and the Extinction at 450 nm in ELISA (extinction at 450 nm) was 0.05. B8 gave an Extinction at 450 nm in ELISA (extinction at 450 nm) of 0.046. B9 was tested, and the Extinction at 450 nm in ELISA (extinction at 450 nm) was 0.098. Work on B10 yielded an Extinction at 450 nm in ELISA (extinction at 450 nm) of 0.048. B11 gave an Extinction at 450 nm in ELISA (extinction at 450 nm) of 0.049. Work on B12 yielded an Extinction at 450 nm in ELISA on AIV antigens (extinction at 450 nm) of 0.049.
